In PubChem BioAssay AID1533 (PCMD, 2009):
This is a selection; strong and weak results do not stand in their true shares. Active and inactive are the calls of the source. Rule as the data show it: active = inhibition mostly above about 34% (no sharp cut-off); inconclusive = no clear call, values can overlap the other calls; inactive = mostly below about 22%.

Sequences of proteins named here, by UniProt entry; tags and fusion partners are left off.
UniProt P9WH09, whole entry, looked up: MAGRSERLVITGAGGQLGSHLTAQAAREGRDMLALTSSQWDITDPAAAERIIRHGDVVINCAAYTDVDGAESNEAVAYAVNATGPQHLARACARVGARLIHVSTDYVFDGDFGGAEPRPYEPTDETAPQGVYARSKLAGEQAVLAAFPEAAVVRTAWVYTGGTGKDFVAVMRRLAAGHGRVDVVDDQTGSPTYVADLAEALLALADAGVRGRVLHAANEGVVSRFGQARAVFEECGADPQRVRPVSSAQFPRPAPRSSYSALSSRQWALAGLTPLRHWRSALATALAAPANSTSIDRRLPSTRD
UniProt P9WH11, whole entry, looked up: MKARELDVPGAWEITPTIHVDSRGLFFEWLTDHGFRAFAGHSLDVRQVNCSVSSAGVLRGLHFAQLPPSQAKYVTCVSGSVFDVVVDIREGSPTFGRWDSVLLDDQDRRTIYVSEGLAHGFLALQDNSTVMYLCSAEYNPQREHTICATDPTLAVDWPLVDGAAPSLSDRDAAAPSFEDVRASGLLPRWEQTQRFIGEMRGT

target: dTDP-4-dehydrorhamnose reductase (Mycobacterium tuberculosis (strain ATCC 25618 / H37Rv)) + dTDP-4-dehydrorhamnose 3,5-epimerase (Mycobacterium tuberculosis (strain ATCC 25618 / H37Rv)) (UniProt P9WH09+P9WH11); experiment: M. tuberculosis RmlC/RmlD coupled enzyme inhibitors, primary screen, biochemical, compound mixtures, 384-well, from 1536-well plates (AID 1533); details: RmlC+RmlD coupled enzyme assay, percent inhibition; primary screen in compound mixtures; at 3.6 µM; active compounds read high

SMILES	inhibition
CP(=O)(Nc1ccccn1)Oc1ccccc1 (stereo not given)	inactive: -6.53%
COc1ccccc1OP(C)(=O)Nc1ccc(C)cc1C (stereo not given)	inactive: -5.7%
O=C(O)c1ccccc1[As](=O)(O)O	inactive: 13.8%
O=P(Nc1nc2ccc(Cl)cc2s1)(c1ccccc1)c1ccccc1	inactive: 2.63%
Cc1cc(C)cc(OP(C)(=O)Nc2cccc(C(F)(F)F)c2)c1 (stereo not given)	inactive: -5.92%
Cc1cc(SC(NC(=O)c2ccc(F)cc2)C(Cl)(Cl)Cl)ncn1 (stereo not given)	inactive: -7.96%
CCOP(=O)(Nc1ccccc1)OCC	inactive: 2.47%
COc1ccccc1OP(C)(=O)Nc1ccc(C)c(C)c1 (stereo not given)	inactive: 2.61%
Cc1ccc(NP(=O)(Oc2ccccc2F)Oc2ccccc2F)nc1	inactive: -1.24%
COc1ccc(OP(C)(=O)Nc2ccccc2Br)cc1 (stereo not given)	inactive: 6.73%
Cc1nc2ccc3ccccc3c2o1.O=[N+]([O-])c1cc([N+](=O)[O-])c(O)c([N+](=O)[O-])c1	inactive: 5.78%
Nc1cccc2ccc([As](=O)(O)O)cc12	inactive: -7.55%
CP(=O)(Nc1ccc(Cl)cc1Cl)Oc1ccccc1 (stereo not given)	inactive: -13.2%
CP(=O)(OCCOc1ccccc1)OCCOc1ccccc1	inactive: -10.9%
O=C(Nc1cc([As](=O)(O)O)ccc1O)c1ccccc1	inactive: 0.47%
CP(=O)(OC12CC3CC(CC(C3)C1)C2)OC12CC3CC(CC(C3)C1)C2	inactive: -1.94%
CC(C)(C)C(=O)NC(Sc1ccncn1)C(Cl)(Cl)Cl (stereo not given)	inactive: 3.79%
O=[N+]([O-])c1ncn(CCn2ncnc2[N+](=O)[O-])n1	inactive: 15.6%

SMILES	inhibition
O=[N+]([O-])c1cccc(NC2=NCC(CBr)S2)c1 (stereo not given)	inactive: 6.41%
O=C(O)CNc1ccc([As](=O)(O)O)cc1	inactive: -8.27%
CCN(CC)CC(O)COC(=O)C(O)(c1ccccc1)C1CCCCC1 (stereo not given)	inactive: -3.58%
COc1ccc(OP(C)(=O)Nc2ccc(Br)cc2)cc1 (stereo not given)	inactive: 6.88%
COc1ccc(C2=NCC(CBr)S2)cc1 (stereo not given)	inactive: -9.24%
CC(=O)N1C2C3N(C(C)=O)C1C1N(C(C)=O)C(C(N1C(C)=O)N3C(C)=O)N2C(C)=O	inactive: 49.6%
O=[N+]([O-])c1cccc2n[nH]nc12	inactive: -6.12%
O=C(OCCCN1CCCC1)C(O)(c1ccccc1)C1CCCCC1 (stereo not given)	inactive: 9.49%
Cc1ccc(NP(=O)(Oc2ccccc2)Oc2ccccc2)nc1	inactive: -4.38%
CCc1ccc(OP(C)(=O)Nc2cccnc2)cc1 (stereo not given)	inactive: -7.58%
O=[N+]([O-])c1cc([N+](=O)[O-])c(CCNc2ccccc2)c([N+](=O)[O-])c1	inactive: 87.8%
COc1ccccc1OP(C)(=O)Nc1ccccc1Br (stereo not given)	inactive: -6.82%
C[N+]1=C2C=CC=CC=C2SC12C([N+](=O)[O-])=CC([N+](=O)[O-])=C[C-]2[N+](=O)[O-] (stereo not given)	inactive: -8.05%
CCN(/C(=N/P(=O)(N1CCOCC1)N1CCOCC1)N1CCOCC1)c1ccc(OC)cc1	inactive: 6%
CC(C)=N/N=C(\N)N[N+](=O)[O-]	inactive: -14.1%
CN(C)C(=O)c1c([N+](=O)[O-])cc([N+](=O)[O-])cc1[N+](=O)[O-]	inactive: 16.1%
CC1CCN(C(=O)Oc2c(Cl)cc(Cl)c3cccnc23)CC1	inactive: 16.3%
